{"source": "paper PMC5247711", "key": {"[1]": {"test_system": "STAT3 (phospho-activated, ESAT-6-treated macrophages) + NF-kB p65", "experiment": "EMSA supershift", "settings": "total extract, ESAT-6 60 min, anti-STAT3 disrupts, anti-p65 supershifts; EMSA: 3-6 ug protein extract with 32P-labeled dsDNA probe, on ice 30 min; salt and pH not given; protein in an extract; label: 32P"}, "[2]": {"biological_target": "STAT3 (ESAT-6-treated macrophages) (Homo sapiens (monocyte-derived macrophages)) (UniProt P40763)", "experiment": "EMSA, competition and supershift", "settings": "cellular extract, ESAT-6 stimulated; EMSA: 3-6 ug protein extract with 32P-labeled dsDNA probe, on ice 30 min; salt and pH not given; protein in an extract; label: 32P"}, "[3]": {"biological_target": "STAT3 (phospho-activated, ESAT-6-treated macrophages) (Mus musculus (bone marrow-derived macrophages)) (UniProt P42227)", "experiment": "EMSA, antibody disruption, cold self competition", "settings": "nuclear extract, ESAT-6 60 min; EMSA: 3-6 ug protein extract with 32P-labeled dsDNA probe, on ice 30 min; salt and pH not given; protein in an extract; label: 32P"}}, "note": "Construct, isoform or probe ends are uncertain for at least one entry. Where cells or extracts were used, other partners may take part. For some of these results: At least one verdict was read from the data and is not stated in words by the source.", "data": [{"sequence": "TGGGATTTTCCCATGAGTCTC (double strand) [mouse IL-6 proximal promoter (-75 to -55)]", "values": [{"measurement": "binding result", "setting": "[1]", "value": "binds"}]}, {"sequence": "GATCCTTCTGGGAATTCCTAGATC (double strand) [STAT3 binding site]", "values": [{"measurement": "binding result", "setting": "[1]", "value": "binds"}, {"measurement": "binding result", "setting": "[2]", "value": "binds"}, {"measurement": "binding result", "setting": "[3]", "value": "binds"}]}]}
